The nature of this experiment: qHTS for Inhibitors of Cell Surface uPA Generation: Wild-type Protective Antigen (WT-PrAg) Counterscreen for Cherry-picked Compounds. Also: 0% is about no effect. As to conditions: cells, WT protective antigen toxicity counterscreen; at 115 µM (top of the series).

Molecules are shown by their SMILES. The entries are a selection whose mix differs from that of the whole data set. Inconclusive results are not listed. Calls of active or inactive are those of the source. Calls follow the shape of the full dose curve.

On to `O=C(O)CNc1ccc([As](=O)(O)O)cc1`, for which the activity (protection) was inactive: 1.18%.

(Values after PubChem BioAssay AID720518 (National Center for Advancing Translational Sciences (NCATS), 2013).)
